Measured values from several laboratories, pooled; numbers as filed in NIAID ChemDB.

Shared fields: growth or infection tests; species: HIV-1; cell line: PBMC; measure: EC50

ECn: concentration that inhibits the pathogen or its effect by n%.

SMILES | strain | changes | read by | conditions | result
O=c1[nH]cnc2c1ncn2[C@H]1CC[C@@H](CO)O1 | Recombinant | RT-Q151M | p24 |  | 1.3 µM
Nc1ccn([C@H]2CC[C@@H](CO)O2)c(=O)n1 | BCF11 | RT-A98G K103R |  |  | 0.05 µM
O=C(O)P(=O)(O)O | 8564 CLADE D CLADE D |  | p24 |  | 14.8 µM
Nc1ccn([C@@H]2CS[C@H](CO)O2)c(=O)n1 | RT-Q151M Recombinant | RT-Q151M | p24 |  | 0.02 µM
Cc1cn([C@H]2C[C@H](N=[N+]=[N-])[C@@H](CO)O2)c(=O)[nH]c1=O | C140 Clinical isolate ZDV-resistant | RT-M42L M184V T215Y | p24 |  | 0.1 µM
CC(C)(C)NC(=O)[C@@H]1C[C@@H]2CCCC[C@@H]2CN1C[C@@H](O)[C@H](Cc1ccccc1)NC(=O)[C@H](CC(N)=O)NC(=O)c1ccc2ccccc2n1 | MVP5180 (PR L10I K20C M36I L63T I64V A71V) | PR-L10I K20C M36I L63T I64V A71V |  |  | 0.013 µM
Cc1cn([C@H]2C[C@H](N=[N+]=[N-])[C@@H](CO)O2)c(=O)[nH]c1=O | CLADE C |  | cytopathic effect / XTT | clinical isolate | 0.007 µM
CC(C)=CCN1Cc2cc(Cl)cc3[nH]c(=S)n(c23)C[C@@H]1C | BCF07 | RT-A98G V106I Y181C |  |  | >6.25 µM
COC(=O)[C@H](C)NP(=O)(OC[C@@H]1C=C[C@H](n2cc(C)c(=O)[nH]c2=O)O1)Oc1ccc(Br)cc1 | P798-1 NRTI resistant | RT-M41L T215Y | p24 |  | 0.0075 µM
O=C1N(Cc2ccc(CO)cc2)[C@H](Cc2ccccc2)[C@H](O)[C@@H](O)[C@@H](Cc2ccccc2)N1Cc1ccc(CO)cc1 | RF |  | virus yield |  | <0.14 µM
Nc1ccn([C@@H]2CS[C@H](CO)O2)c(=O)n1 | 1617-1 NRTI resistant recombinant | RT-T69K K70G V75I F77L F116Y Q151M M184V | RT activity |  | >10 µM
S=C(NCCc1cccs1)Nc1ccc(Br)cn1 | X267-1 Clinical isolate NRTI-resistant | RT-M41L L74CV L210W T215Y | p24 |  | 0.004 µM
Cc1cn([C@H]2C[C@H](N=[N+]=[N-])[C@@H](CO)O2)c(=O)[nH]c1=O | X267-1 NRTI resistant | RT-M41L L74V L210W T215Y | p24 |  | 0.6 µM
COC(=O)[C@H](C)NP(=O)(OC[C@@H]1C=C[C@H](n2cc(C)c(=O)[nH]c2=O)O1)Oc1ccc(Br)cc1 | S762-4 Clinical isolate ZDV-resistant | RT-M41L T215Y | p24 |  | 0.008 µM

For reference, 2 entries again:

| SMILES | strain | changes | read by | conditions | result |
|---|---|---|---|---|---|
| Cc1cn([C@H]2C[C@H](N=[N+]=[N-])[C@@H](CO)O2)c(=O)[nH]c1=O | X267-1 NRTI resistant | RT-M41L L74V L210W T215Y | p24 |  | 0.6 µM |
| O=c1[nH]cnc2c1ncn2[C@H]1CC[C@@H](CO)O1 | Recombinant | RT-Q151M | p24 |  | 1.3 µM |

Blank or dashed fields: not listed here. Neighbouring rows are from separate reports.